In one series the target is TcSir2 (Trypanosoma cruzi, UniProt Q4DP02). The series can be described thus: Recombinant TcSir2 activity assay (fluorescent peptide deacetylation). To be noted: read-out: IC50 (TcSir2); recombinant TcSir2 0.1 μM, 10 μM peptide, 25 μM NAD+, 37 °C; ND = values measured but did not converge IC50 significantly.
In the next series the test system is T. cruzi amastigote. Kind of series: In vitro trypanocidal activity with amastigote forms (Tulahuen LacZ, CPRG). It is filed as cell-based, Trypanosoma cruzi. The conditions noted are these: read-out: IC50 T. cruzi ama; intracellular amastigotes in LLCMK2 cells, 72 h; ND* = values measured but did not converge IC50 significantly. The method, then:
In 96-well plates, cells from the LLCMK2 lineage were seeded at a concentration of 5 × 10^4 cells/mL (80 μL). The trypomastigote forms of the Tulahuen LacZ strain were added at a concentration of 5 × 10^5 cells/mL (in a total of 20 μL) and, subsequently incubated for 24 h at 37 °C with a 5% CO2 atmosphere. Next, the trypomastigote forms present in the supernatant were washed, leaving only the amastigote forms. Serial dilutions of the compounds were added (1.95 to 200 µM) and the plate was incubated for 72 h at 37 °C with a 5% CO2 atmosphere. At the end of this period, the CPRG substrate (chlorophenol red β-D-galactopyranoside, 400 μM in 0.3% Triton X-100, pH 7.4) was added and incubated for additional 6 h. After incubation, the sample’s absorbance values were measured using a spectrophotometer at 570 nm. Benznidazole and dimethyl sulfoxide (DMSO) in the same concentrations as tested compounds were used as the positive and negative controls, respectively.

The chains behind the UniProt entries cited, without tags or fusion partners. Residues count along the entry.
UniProt Q4DP02, 1-359: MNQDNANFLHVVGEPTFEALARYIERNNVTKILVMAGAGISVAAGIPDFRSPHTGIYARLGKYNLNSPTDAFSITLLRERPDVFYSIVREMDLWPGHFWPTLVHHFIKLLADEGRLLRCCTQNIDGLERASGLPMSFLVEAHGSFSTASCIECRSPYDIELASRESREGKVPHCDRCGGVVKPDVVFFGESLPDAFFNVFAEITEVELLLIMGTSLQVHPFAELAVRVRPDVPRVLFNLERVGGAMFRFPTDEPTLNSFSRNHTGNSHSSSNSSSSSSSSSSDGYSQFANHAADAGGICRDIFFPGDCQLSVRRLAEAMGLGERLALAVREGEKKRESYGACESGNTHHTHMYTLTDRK

The next series concerns LLCMK2 cells. The series can be described thus: Mammalian cell viability assay (MTT). The conditions noted are these: read-out: EC50 Cell Toxicity, 72 h, ND* = values measured but did not converge IC50 significantly.

Molecules are shown by their SMILES.

For the compound `CCCN(C(=O)COC(=O)CCOc1ccccc1C)c1c(N)n(Cc2ccccc2)c(=O)[nH]c1=O`, the IC50 on TcSir2 stood at 332 µM; in the series with T. cruzi amastigote, 169 µM. The EC50 in the series on LLCMK2 cells came to 227 µM.

As a reminder, the IC50 is the concentration at which inhibition is half-maximal. Broadly, the EC50 is the concentration that produces a half-maximal response.

The values are drawn from paper PMC10057528, “Trypanosoma cruzi Sirtuin 2 as a Relevant Druggable Target: New Inhibitors Developed by Computer-Aided Drug Design” (Pharmaceuticals, 2023).
